Here are results for 3 substances from patent US20110104179A1, “PROTEASE INHIBITORY PEPTIDES” (priority 2009, published 2011).

The target in assay [1] is RgpA-Kgp proteinase adhesin complexes (Arg-specific activity) (Porphyromonas gingivalis, UniProt B2RM93). In words: Arg-specific activity of purified RgpA-Kgp proteinase adhesin complexes (BApNA). The note with it: for Arg-specific Activity (%): % of control; for Arg-specific Activity (%) / Arg-specific Activity (Units/mg): purified RgpA-Kgp complexes; for Arg-specific Activity (Units/mg): BApNA; for Protease activity (%) of the Arginine-gingipains, W50 Complex: 100 μM peptide.

Assay [2] has as its target RgpA-Kgp proteinase adhesin complexes (Lys-specific activity) (Porphyromonas gingivalis, UniProt Q51817). In words: Lys-specific activity of purified RgpA-Kgp proteinase adhesin complexes (GPK-NA). The note with it: for Lys-specific Activity (%): % of control; for Lys-specific Activity (%) / Lys-specific Activity (Units/mg): purified RgpA-Kgp complexes; for Lys-specific Activity (Units/mg): GPK-NA.

Marks after values point to notes of the source that are not given here.

With “Thr Glu Ile Pro Thr Ile Asn Thr Ile Ala Ser Gly Glu Pro Thr Ser Thr Pro Thr Thr Glu”, the “Arg-specific Activity (%)” value is listed as 46% in assay [1] (50 μM), 10% in assay [1] (100 μM) and 8% in assay [1] (200 μM). The results for the “Arg-specific Activity (Units/mg)” value in assay [1] (50 μM), in assay [1] (100 μM) and in assay [1] (200 μM) were 1.95 ± 0.38^a,c Units/mg, 0.41 ± 0.11^a,b Units/mg and 0.33 ± 0.02^a,b Units/mg, respectively. Besides, the “Lys-specific Activity (%)” value worked out at 29% in assay [2] (50 μM), 21% in assay [2] (100 μM) and 9% in assay [2] (200 μM). Moreover, the “Lys-specific Activity (Units/mg)” value is 1.34 ± 0.25^a,c Units/mg in assay [2] (50 μM), 0.98 ± 0.053^a,c Units/mg in assay [2] (100 μM) and 0.41 ± 0.014^a,b Units/mg in assay [2] (200 μM).

As to “Tyr Gln Glu Pro Val Leu Gly Pro Val Arg Gly Pro Phe Pro Ile Ile Val”, the “Protease activity (%) of the Arginine-gingipains, W50 Complex” value in assay [1] is on record as 21%. In assay [2] (100 μM peptide), the “Protease activity (%) of the Lysine-gingipains, W50 Complex” value came out at 12%.

For the substance “Leu Pro Gln Glu Val Leu Asn Glu Asn Leu Leu Arg Phe”, the “Protease activity (%) of the Arginine-gingipains, W50 Complex” value in assay [1] was 47%. For the same substance, the “Protease activity (%) of the Lysine-gingipains, W50 Complex” value in assay [2] (200 μM peptide) turned out to be 52%.
